According to US20210292393A1 (published 2021):
Numbering of substitutions follows the chain as printed.

B1: antibody 258 (antibody, V domains shown)
VH: QVQLQESGPGLVKPSETLSLTCTVSGGSISSYYWSWIRQPAGKGLEWIGRIYTSGSTNYNPSLKSRVTMSVDTSKNQFSLKLSSVTAADTAVYYCAAGYGSIDYWGQGTLVTVSS
VL: not shown
B2: antibody 291 (antibody, V domains shown)
VH: QVQLVESGGGVVQPGRSLRLSCAASGFTFSSYAMHWVRQAPGKGLEWVAVISYDGSNKYYADSVKGRFTISRDNSKNTLYLQMNSLRAEDTAVYYCARASGGSYFGGMDVWGQGTTVTVSS
VL: QSALTQPASVSGSPGQSITISCTGTSSDVGGYNYVSWYQQHPGKAPKLMIYEVSNRPSGVSNRFSGSKSGNTASLTISGLQAEDEADYYCSSYTSSSTLYVFGTGTKVTVL
B3: anti-SARS-CoV-2 antibody 455 (antibody, V domains shown)
VH: QVQLVQSGAEVKKPGSSVKVSCKASGGTFSSYAISWVRQAPGQGLEWMGRIIPILGIANYAQKFQGRVTITADKSTSTAYMELSSLRSEDTAVYYCARDSIVVPAAIISGYYYYGMDVWGQGTTVTVSS
VL: QSVLTQPPSVSAAPGQKVTISCSGSSSNIGNNYVSWYQQLPGTAPKLLIYDNNKRPSGIPDRFSGSKSGTSATLGITGLQTGDEADYYCGTWDSSLSAGRVFGGGTKLTVL
B4: anti-SARS-CoV-2 antibody 458 (antibody, V domains shown)
VH: QVQLVESGGGVVQPGRSLRLSCAASEFTFATYAMHWVRQAPGKGLEWVALISQDGSNKHYADSVKGRFTISRDNSKNTLYLQMNSLRAEGTAIYYCARESLEAAGPPFDYWGQGTLVTVSS
VL: SYELTQPPSVSVSPGQTATIICSGDKLGEKYASWYQQKPGQSPALVIYQDRKRPSGIPERFSGSNSGNTATLTISGTQAMDEADYYCQAWDSSNSVVFGGGTKLTVP
B5: anti-SARS-CoV-2 antibody 461 (antibody, V domains shown)
VH: EVQLVESGGGLVKPGGSLRLSCAASGFTFSSYSMNWVRQAPGKGLEWVSSISSSSSYIYYADSVKGRFTISRDNAKNSLYLQMNSLRAEDTAVYYCASNPAAGQEAYYYYGMDVWGQGTTVTVSS
VL: not shown
B6: anti-SARS-CoV-2 antibody 465 (antibody, V domains shown)
VH: QITLKESGPTLVKPTQTLTLTCTFSGFSLSTSGVGVGWIRQPPGKALEWLALIYWDDDKHYSPSLKSRLTITKDTSKNQVVLTMTNMDPVDTATYYCAHMYYDILSGYYYGMDVWGQGTTVTVSS
VL: QSVLTQPPSASGTPGQRVTISCSGSSSNIGSNYVYWYQQLPGTAPKLLIYRNNQRPSGVPDRFSGSKSGTSASLAISGLRSEDEADYYCAAWDDSLSGRWVFGGGTKLTVL
B7: anti-SARS-CoV-2 antibody 467 (antibody, V domains shown)
VH: QVQLVQSGAEVKKPGASVKVSCKASGYTFISYGISWVRQAPGQGLEWMGWISAYNGNTNYAQKLQGRVTMTTDTSTSTAYMELRSLRSDDTAVYYCARGLWPGYYYGSGSYSAFHIWGQGTMVTVSS
VL: QSALTQPPSASGSPGQSVSISCTGTSSDVGGYNYVSWYQQHPGKAPKLMIYEVSKRPSGVPDRFSGSKSGNTASLTVSGLQAEDEADYYCSSYAGSNKVFGGGTKLTVL
B8: anti-SARS-CoV-2 antibody 468 (antibody, V domains shown)
VH: QVQLVESGGGVVQPGRSLRLSCAASGFTFSIYAMHWVRQAPGKGLEWVAVISYDGSNKYYADSVKGRFTISRDNSKNTLYLQMNSLRAEDTAVYYCAGSLPAGSYYYYYGMDVWGQGTTVTVSS
VL: SYELTQPPSVSVSPGQTARITCSGDALPKQYAYWYQQKPGQAPVLVIYKDSERPSGIPERFSGSSSGTTVTLTISGVQAEDEADYYCQSADNSGTYVLFGGGTKLTVL
B9: anti-SARS-CoV-2 antibody 469 (antibody, V domains shown)
VH: QVQLVESGGGVVQPGRSLRLSCAASGFTFSSYGMHWVRQAPGKGLEWVAVIWYDGSNKYYADSVKGRFTISRDNSKNTLYLQMNSLRAEDTAVYYCARDLLSVGWSFDYWGQGTLVTVSS
VL: not shown
B10: anti-SARS-CoV-2 antibody 472 (antibody, V domains shown)
VH: EVQLVESGGGLIQPGGSLRLSCAASGFTVSSNYMSWVRQAPGKGLEWVSVIYSGGTTHYADSVKGRFTISRDNSKNTLYLQMNSLRAEDTAVYYCANYGMDVWGQGTTVTVSS
VL: SYELTQPSSVSVSPGQTARITCSGDVLAKKYARWFQQKPGQAPVLVIYKDSERPSGIPERFSGSSSGTTVTLTISGAQVEDEADYYCYSAADKVFGGGTKLTVL
B11: anti-SARS-CoV-2 antibody 482 (antibody, V domains shown)
VH: EVQLVESGGGLVQPGGSLRLSCAASGFTFSSYWMTWVRQAPGKGLEWVANIKQDGSEKYYVDSVKGRFTISRDNAKNSLYLQMNSLRAEDTAVYYCARGVGSWYLGFDYWGQGTLVTVSS
VL: NFMLTQPHSVSESPGKTVTISCTGSSGSIASNYVQWYQQRPGSAPTTVIYEDNQRPSGVPDRFSGSIDSSSNSASLTISGLKTEDEADYYCQSYDGSSYVFGTGTKVTVL
B12: anti-SARS-CoV-2 antibody 493 (antibody, V domains shown)
VH: EVQLVESGGGLIQPGRSLRLSCAASGFTVSITYMSWVRQAPGKGLEWVSLIYSGGSSYYADSVKGRFTISRDNSKNTLYLQMNSLRAEDTAVYYCATTMVRGVIISYYYGMDVWGQGTTVTVSS
VL: QSALTQPASVSGSPGQSITISCTGTSSDVGGYNYVSWYQQHPGKAPKLMIYEVSNRPSGVSNRFSGSKSGNTASLTISGLQAEDEADYYCSSYTSSSTLVFGGGTKLTVL
B13: mAb 297 (antibody, V domains shown)
VH: B2 VH with A99S, S100F, G101R, S103G, F105Y, G106Y
VL: DIQLTQSPSFLSASVGDRVTITCRASQGISSYLAWYQQKPGKAPKLLIYAASTLQSGVPSRFSGSGSGTEFTLTISSLQPEDFATYYCQQLNSYPLFTFGPGTKVDIK
B14: mAb 309 (antibody, V domains shown)
VH: B2 VH with A99P, S100Y, G101S, F105Q, G106S, G107Y, M108F, V110Y, T116L
VL: not shown
B15: mAb 414 (antibody, V domains shown)
VH: QVQLVQSGAEVKKPGASVKVSCKASGYTFTSYYMHWVRQAPGQGLEWMGIINPSGGSTSYAQKFQGRVTMTRDTSTSTVYMELSSLRSEDTAVYYCARDPPGRDFWSGYYFGAPDYYYYYGMDVWGQGTTVTVSS
VL: DIQMTQSPSSLSASVGDRVTITCRASQGISNYLAWFQQKPGKAPKSLIYAASSLQSGVPSKFSGSGSGTDFTLTISSLQPEDFATYYCQQYNSYPYTFGQGTKLEIKR
B16: mAb 462 (antibody, V domains shown)
VH: QVQLVESGGGVVQPGRSLRLSCAASGFTFSSYGMHWVRQAPGKGLEWVAVIWYDGNNKYYADSVKGRFTISRDNSKNTLYLQMNSLRAEDTAVYYCAKDPTWFGELPSYYYYGMDVWGQGTTVTVSS
VL: not shown
B17: mAb 494 (antibody, V domains shown)
VH: EVQLVESGGGLVQPGGSLRLSCAASGFTVSSNYMSWVRQAPGKGLEWVSVIYSGGSTFYADSVKGRFTISRDNSKNTLYLQMNSLRAEDTAVYYCARDSGDQLLDYWGQGTLVTVSS
VL: DIQLTQSPSFLSASVGDRVTITCRASQGISSYLAWYQQKPGKAPKLLIYAASTLQSGVPSRFSGSGSGTEFTLTISSLQPEDFATYYCQQLNSYPPFTFGPGTKVDIKR
B18: mAb 506 (antibody, V domains shown)
VH: QITLKESGPTLVKPTQTLTLTCTFSGFSLSTSGVGVGWIRQPPGKALEWLALIYWDDDKRYSPSLKSRLTITKDTSKNQVVLTMTNMDPVDTATYYCAHHSLSSIFDYWGQGTLVTVSS
VL: QSALTQPASVSGSPGQSITISCTGTSSDVGDYNYVSWYQQHPGKAPKLMIYEVSNRPSGVSNRFSGSKSGNTASLTISGLQAEDEADYYCSSYTSSSTVFGGGTKLTVLG
B19: mAb 553 (antibody, V domains shown)
VH: QVQLVQSGAEVKKPGASVKVSCKASGYTFTSYGISWVRQAPGQGLEWMGWISAYNGNTNYAQKLQGRVTMTTDTSTSTAYMELRSLRSDDTAVYYCARDRGYAATFGVFDYWGQGTLVTVSS
VL: not shown
B20: mAb 562 (antibody, V domains shown)
VH: B2 VH with G101S, S103G, F105Q, G107P, M108F, V110P, T116L
VL: QSALTQPASVSGSPGQSITISCTGTSSDVGGYNYVSWYQQHPGKAPKLMIYDVSNRPSGVSNRFSGSKSGNTASLTISGLQAEDEADYYCSSYTSSSTLLYVFGTGTKVTVLG

molecular target: T1, full-length trimeric SARS-CoV spike protein (SARS-CoV, UniProt P59594 14-1190); assay: multiplexed bead assay, flow cytometry

Binder | median fluorescence intensity, fold over isotype control [fold over isotype]
B1 | 84.8
B2 | 58.8

molecular target: T2, SARS-CoV-2 spike (S) protein, full length, wild type (SARS-CoV-2, UniProt P0DTC2 14-1208); assay: multiplexed bead assay, flow cytometry

Binder | median fluorescence fold over isotype [fold over isotype]
B3 | 175
B4 | 56.5
B5 | 1010
B6 | 359
B7 | 215
B8 | 1150
B9 | 125
B10 | 22.3
B11 | 369
B12 | 381

molecular target: SARS-CoV-2 spike protein on infectious SARS-CoV-2 virus, clinical isolate USA/WA/1/2020 (SARS-CoV-2, UniProt P0DTC2 14-1273); assay: cell-based or functional assay

Binder | Lab 1 live virus IC50 [µg/mL] | Lab3 live virus IC50 [µg/mL]
B13 | 1.25 | 9.9
B14 | > 20 | > 100
B15 | > 20 | > 100
B16 | 10 | > 100
B17 | 2.5 | 23.6
B18 | 1.25 | 2
B19 | 20 | > 100
B20 | > 40 | > 100

molecular target: T1, full-length trimeric SARS-CoV spike …; assay: multiplexed bead assay, flow cytometry; remark: another data set of the same source

Binder | median fluorescence intensity, fold over isotype control [fold over isotype]
B1 | 42.1
B2 | 31.3

molecular target: T2, SARS-CoV-2 spike (S) protein, full …; assay: multiplexed bead assay, flow cytometry; remark: another data set of the same source

Binder | median fluorescence fold over isotype [fold over isotype]
B3 | 534
B4 | 219
B5 | 1760
B6 | 1160
B7 | 724
B8 | 1890
B9 | 730
B10 | 98.3
B11 | 872
B12 | 1010

molecular target: T2, SARS-CoV-2 spike (S) protein, full …; assay: multiplexed bead assay, flow cytometry; remark: another data set of the same source

Binder | median fluorescence fold over isotype [fold over isotype]
B3 | 333
B4 | 319
B5 | 763
B6 | 171
B7 | 378
B8 | 818
B9 | 241
B10 | 57.4
B11 | 587
B12 | 335
